# Results: patent EP4014973B1, “INHALED LIQUID FOR THE TREATMENT OF RESPIRATORY INFECTIONS IN HUMANS CAUSED BY PATHOGENS RESISTANT TO ANTIBIOTICS” (Conick Biotech LLC, priority 2020, dated 2022)
# System: humans
# Assay: Clinical pilot study of side effects after inhalation
# Conditions: 80 humans; blood samples before the test, on the 4th and 8th day
smiles,measurement,value
"C=CCc1ccc(O)c(OC)c1.CCN(CC)CC(=O)Nc1c(C)cccc1C [Novel Compound, N-[N'-(carboxymethylenyl-2,6-dimethyl-aniline)-N,N-diethylammonium]-[2'-methoxy-4'-(2'-propenyl)]-phenolate.]",liver function biochemical analysis from blood samples,did not have any negative clinical or acute effects on the hepatic function
